Where a name gives a salt, the structure may show the parent alone.
Tested on: lactate oxidase
Experiment: Enzyme Stability Test: oxalate as stabilising agent for lactate oxidase in S4932 rinse solution (Example 5)
Assay type: biochemical, Pediococcus
Method: Colorimetric lactate oxidase assay
The formation of H2 O2 is determined in a peroxidase (POD) assay system where a quinonimine dye is formed. The amount of formed quinonimine dye is determined spectrophotometically at 490 nm.
100 μL of Reagent A is added to a well of a microtiterplate (Immunoplate, Nunc, Roskilde, Denmark). The colour reaction is started by adding 100 μL of the Enzyme Solution. Immediately afterwards, the microtiterplate is placed in the plate-holder of a THERMOmax incubator (Molecular Devices, Menlo Park, Calif., USA) pre-set to: 37° C., kinetic mode, lag-time 5 min., reading time 15 min., and automix.
The enzymatic activity of lactate oxidase (and also other enzymes) is decreasing exponentially. Therefore, the half-life period (t1/2) for the enzymatic activity will be independent of the initial concentration, and, thus, t1/2 is an excellent expression for the stability of an enzyme under various conditions.
The enzymatic activity is determined (as described in the Enzyme Activity Test above) for the enzyme composition in question at least four times over a relevant period, e.g. every day for at least four days (day 0 to day 3). t1/2 is then calculated following standard mathematical methods.
A solution of 0.04 U/mL lactate oxidase in S4932 rinse solution (Radiometer Medical A/S, Copenhagen, Denmark) was prepared. Disodium oxalate corresponding to a total concentration of 1, 2, 4, 8, and 16 mM of oxalate was added. The enzymatic activity of the solutions was determined five times over a period of 13 days. The enzymatic stability of these solutions was compared with the enzymatic stability of a solution without oxalate.

## O=C(O)C(=O)O [Oxalate, disodium oxalate]
Oxalate 1 mM
  t1/2 of the enzymatic activity of lactate oxidase: 21.0 days
Oxalate 2 mM
  t1/2 of the enzymatic activity of lactate oxidase: 20.2 days
Oxalate 4 mM
  t1/2 of the enzymatic activity of lactate oxidase: 31.2 days
Oxalate 8 mM
  t1/2 of the enzymatic activity of lactate oxidase: 36.5 days
Oxalate 16 mM
  t1/2 of the enzymatic activity of lactate oxidase: 45.6 days
Oxalate 16 mM, highest concentration
  stability (quoted as t1/2) versus solution without oxalate: tripled

— patent US6051389A, “Enzyme sensor” (Radiometer Medical A/S, priority 1996, dated 2000)
